Results of unrelated studies side by side (data: NIAID ChemDB).

All rows: target-level tests

ICn is the concentration giving n% inhibition.

SMILES	species	strain or isolate	target	read by	measure	dose	result
CCCCCCCCCCCCCCCCN(C(=O)Nc1ccccc1)[C@@H](CC(=O)OCC)C1O[C@@H]2OC(C)(C)O[C@@H]2[C@H]1OC	Mycobacterium aurum	-	Alpha-glucosidase	-	inhibition	100 µM	34.8%
Cc1c(Br)c(=O)n(C2CCCC2)c2nc(Nc3ccc(N4CCN(C)CC4)cc3)ncc12	Mycobacterium tuberculosis	-	Protein kinase B	kinase activity / radiometric	inhibition	10 µM	97.6%
CO[C@H]1/C=C/O[C@@]2(C)Oc3c(C)c(O)c4c(=O)c(c5oc6cc(N7CCN(CC(C)C)CC7)cc(=O)c6nc5c4c3=C2O)NC(=O)/C(C)=C\C=C\[C@H](C)[C@H](O)[C@@H](C)[C@@H](O)[C@@H](C)[C@H](OC(C)=O)[C@@H]1C	Mycobacterium avium	N-266	RNA polymerase	-	IC50	-	0.04 µg/mL
COCCN1CCN(C(=O)c2nc3cc(C(F)(F)F)c(C)c([N+](=O)[O-])c3s2)CC1	Mycobacterium tuberculosis	-	Cytochrome P450 2C9	fluorescence / absorbance	IC50	-	>100 µM
Cc1noc(C)c1-n1sc(=O)n(CC2CC2)c1=O	Mycobacterium smegmatis	mc2155	Alanine racemase	HPLC	IC50	-	>100 µM
NC(=O)c1c(NC(=O)Nc2ccc3c(c2)OCO3)sc2c(Cl)c(O)ccc12	Mycobacterium tuberculosis	-	Alcohol dehydrogenase (ADH)	absorbance	inhibition	100 µM	85%
CCCCCCCCCCCCN(C(=O)NCc1ccccc1)[C@@H](CC(=O)OCC)C1O[C@@H]2OC(C)(C)O[C@@H]2[C@H]1Oc1ccccc1	Mycobacterium aurum	-	Alpha-glucosidase	-	inhibition	100 µM	10.8%
CC(=O)c1c(C)c2cnc(Nc3ccc(N4CCN(C)CC4)cc3)nc2n(C2CCCC2)c1=O	Mycobacterium tuberculosis	-	Protein kinase B	kinase activity / radiometric	inhibition	10 µM	92.4%
CC1(C)[C@H](C(=O)O)N2C(=O)C[C@H]2S1(=O)=O	Mycobacterium tuberculosis	TB2	Beta-lactamase	-	IC50	-	1 µg/mL
O=c1[nH]c(=O)c2c([nH]1)n(C[C@H](O)[C@H](O)[C@H](O)CO)c(=O)c(=O)n2CCCCOP(=O)(O)O	Mycobacterium tuberculosis	-	Lumazine synthase	-	Ki	-	0.036 µM
O=c1sn(-c2ccc([N+](=O)[O-])cc2Cl)c(=O)n1CC1CC1	Mycobacterium tuberculosis	H37Rv	Alanine racemase	HPLC	IC50	-	<0.03 µM
O=c1[nH]c(=O)c2c([nH]1)n(C[C@H](O)[C@H](O)[C@H](O)CO)c(=O)n2CCCCCP(=O)(O)O	Mycobacterium tuberculosis	-	Lumazine synthase	-	Ki	-	0.0047 µM
CCOC(=O)C[C@@H](C1O[C@@H]2OC(C)(C)O[C@@H]2[C@H]1OC)N(C(=O)Nc1ccc(Cl)cc1)C1CC1	Mycobacterium aurum	-	Alpha-glucosidase	-	inhibition	100 µM	4.3%
Cc1cccc(Cl)c1-n1sc(=O)n(CC2CC2)c1=O	Mycobacterium tuberculosis	H37Rv	Alanine racemase	HPLC	IC50	-	4.48 µM
NNC(=O)c1ccncc1	Mycobacterium tuberculosis	H37RV (INH 10 ug/mL-R)	Alpha-ketoglutarate dehydrogenase	-	IC50	-	>1000 µM
CCOC(=O)c1cccc(-n2sc(=O)n(C3Cc4ccccc4C3)c2=O)c1	Mycobacterium tuberculosis	H37Rv	Alanine racemase	HPLC	IC50	-	28.76 µM
Cn1cc(/C=C2/C(=O)N3C(C(=O)[O-])CSC23)nn1.[Na+]	Mycobacterium tuberculosis	TB3	Beta-lactamase	-	IC50	-	0.0003 µg/mL
Cc1ccc(-n2sc(=O)n(Cc3ccc(F)cc3)c2=O)cc1	Mycobacterium tuberculosis	H37Rv	Alanine racemase	HPLC	IC50	-	0.13 µM
Cc1[nH+]c2ccccc2c(=O)n1NC(=O)C(=O)N/N=C/c1ccc(O)c(O)c1O	Mycobacterium tuberculosis	-	Protein kinase B	kinase activity / radiometric	IC50	-	0.337 µM
C[C@H]1COC2(CCN(c3nc(=O)c4cc(C(F)(F)F)cc([N+](=O)[O-])c4s3)CC2)O1	Mycobacterium tuberculosis	-	Cytochrome P450 2C9	fluorescence / absorbance	IC50	-	4.99 µM
O=c1sn(-c2ccc(F)c(Cl)c2)c(=O)n1C1Cc2ccccc2C1	Mycobacterium tuberculosis	H37Rv	Alanine racemase	HPLC	IC50	-	8.46 µM
CCOC(=O)C[C@@H](C1O[C@@H]2OC(C)(C)O[C@@H]2[C@H]1Oc1ccccc1)N(C(=O)Nc1ccc(Cl)cc1)C1CC1	Mycobacterium aurum	-	Alpha-glucosidase	-	inhibition	100 µM	15.3%

Again, the opening 2 rows:

SMILES	species	strain or isolate	target	read by	measure	dose	result
CCCCCCCCCCCCCCCCN(C(=O)Nc1ccccc1)[C@@H](CC(=O)OCC)C1O[C@@H]2OC(C)(C)O[C@@H]2[C@H]1OC	Mycobacterium aurum	-	Alpha-glucosidase	-	inhibition	100 µM	34.8%
Cc1c(Br)c(=O)n(C2CCCC2)c2nc(Nc3ccc(N4CCN(C)CC4)cc3)ncc12	Mycobacterium tuberculosis	-	Protein kinase B	kinase activity / radiometric	inhibition	10 µM	97.6%

An empty or dashed field is not shown. Inhibition is in % at the dose shown (toxicity tests: loss of growth or viability). Neighbouring rows are from separate reports.